# PubChem BioAssay AID1224833, University of Georgia, 2016
# Screen: 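Host factors restraining rotavirus as candidate antiviral genes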 (primary screen)
# System: monkey MA104 kidney cells
# Reagents: siRNA pool against human genes, 50 nM
# Duration: 48 h knock-down before infection; read 24 h after infection
# Treatment: infection with rotavirus strain RV3 two days after transfection; infectious dose for this stage not given
# Measurement: 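Rotavirus antigen per well by fluorescent immunoassay, normalised to non-targeting control wells on each plate and given as a standard z-score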
# Reading the numbers: z-score vs non-targeting control: higher = more rotavirus replication than with non-targeting control
# Rule for the call: In these data the active calls have z-score vs non-targeting control at about -1 or lower, or at about 1 or higher
# Calls: active = z-score beyond 1 either way; inactive = z-score within 1 of zero
# This is one part, drawn at random, of about 12,000 reagents. In the full data, about 5,600 (46%) got an active call. 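Active calls cover z-scores past 1 in both directions, so they include lowered as well as raised rotavirus replication.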 A number with no mark means an inactive call. Reagent sequences are not shown.
Target gene,z-score vs non-targeting control
DLGAP4 (DLG associated protein 4),-0.239
IL19 (interleukin 19),0.831
TMPO (thymopoietin),0.644
KRT13 (keratin 13),-0.0099
"RAB32 (RAB32, member RAS oncogene family)",-0.89
TGFA (transforming growth factor alpha),-3.03 (active)
KLF7 (KLF transcription factor 7),1.05 (active)
CRISP1 (cysteine rich secretory protein 1),1.18 (active)
"NDN (necdin, MAGE family member)",-0.958
ARPC5 (actin related protein 2/3 complex subunit 5),0.0329
VBP1 (VHL binding protein 1),-1.14 (active)
SSX4 (SSX family member 4),-0.649
SHC2 (SHC adaptor protein 2),-1.37 (active)
OR2H1 (olfactory receptor family 2 subfamily H member 1),1.08 (active)
OR6C2 (olfactory receptor family 6 subfamily C member 2),-0.577
RHOT2 (ras homolog family member T2),0.123
COA8 (cytochrome c oxidase assembly factor 8),-3.82 (active)
QNG1 (Q-nucleotide N-glycosylase 1),0.179
CSF2RA (colony stimulating factor 2 receptor subunit alpha),-1.16 (active)
AGXT2 (alanine--glyoxylate aminotransferase 2),-2.2 (active)
IL3RA (interleukin 3 receptor subunit alpha),-2.07 (active)
POP7 (POP7 ribonuclease P/MRP subunit),1.36 (active)
NUP35 (nucleoporin 35),-1.2 (active)
ZNF326 (zinc finger protein 326),-0.926
C11orf42 (chromosome 11 open reading frame 42),2.85 (active)
C2CD3 (C2 domain containing 3 centriole elongation regulator),-1.46 (active)
CFAP210 (cilia and flagella associated protein 210),-2.45 (active)
VTN (vitronectin),0.744
YAE1 (YAE1 maturation factor of ABCE1),2.12 (active)
UCMA (upper zone of growth plate and cartilage matrix associated),1.28 (active)
SLC27A6,0.832

Part of the list above, set out differently:
| Target gene | z-score vs non-targeting control |
| --- | --- |
| KLF7 (KLF transcription factor 7) | 1.05 (active) |
| CRISP1 (cysteine rich secretory protein 1) | 1.18 (active) |
| NDN (necdin, MAGE family member) | -0.958 |
| ARPC5 (actin related protein 2/3 complex subunit 5) | 0.0329 |

Further entries follow:
Target gene,z-score vs non-targeting control
CPA3 (carboxypeptidase A3),1.45 (active)
GHR (growth hormone receptor),0.563
MLLT1 (MLLT1 super elongation complex subunit),0.651
RCN1 (reticulocalbin 1),0.708
ANKRD17 (ankyrin repeat domain 17),1.28 (active)
ZNF507 (zinc finger protein 507),-1.69 (active)
EVPL (envoplakin),-0.49
SHISA2 (shisa family member 2),-1.08 (active)
CCL4 (C-C motif chemokine ligand 4),-1.73 (active)
WFDC6 (WAP four-disulfide core domain 6),-0.0845
PHOX2B (paired like homeobox 2B),-0.664
CDH7 (cadherin 7),-1.03 (active)
TIMCC (TIM double twin CX3C motif chaperone),-2.96 (active)
SLC22A23,0.963
GGH (gamma-glutamyl hydrolase),0.572
BABAM2 (BRISC and BRCA1 A complex member 2),-1.3 (active)
SEPTIN3 (septin 3),-0.922
"LIPF (lipase F, gastric type)",-1.4 (active)
KRT83 (keratin 83),1.38 (active)
C1orf216 (chromosome 1 open reading frame 216),-0.548
SNAP23 (synaptosome associated protein 23),0.475
TSNAX (translin associated factor X),-2.44 (active)
SUN5 (Sad1 and UNC84 domain containing 5),1.13 (active)
"SUPT20H (SPT20 homolog, SAGA complex component)",-1.32 (active)
ENPP5,-1.4 (active)
NCAM2 (neural cell adhesion molecule 2),-0.561
DEUP1 (deuterosome assembly protein 1),0.569
MYT1 (myelin transcription factor 1),-1.61 (active)
NPPC (natriuretic peptide C),-1.52 (active)
SPRR2G (small proline rich protein 2G),-0.0018
ETAA1 (ETAA1 activator of ATR kinase),-1.41 (active)
JUP (junction plakoglobin),0.807
CIMIP5 (ciliary microtubule inner protein 5),1.62 (active)
STON2 (stonin 2),3.16 (active)
"DEPDC5 (DEP domain containing 5, GATOR1 subcomplex subunit)",-1.86 (active)
"CENPBD1P (CENPB DNA-binding domain containing 1, pseudogene)",1.26 (active)
SOX5 (SRY-box transcription factor 5),1.06 (active)
HIC2 (HIC ZBTB transcriptional repressor 2),1.21 (active)
CNPY4 (canopy FGF signaling regulator 4),0.535
FAM20A (FAM20A golgi associated secretory pathway pseudokinase),0.223
FGF7 (fibroblast growth factor 7),-0.318
LRRC61 (leucine rich repeat containing 61),-1.54 (active)
AQP4 (aquaporin 4),2.17 (active)
VOPP1 (VOPP1 WW domain binding protein),1.43 (active)
